Measured values from several laboratories, pooled; numbers as filed in NIAID ChemDB.

All rows: growth or infection tests; organism: Hepatitis B virus; cells: HepG2.117; read-out: EC50

a–b is a range or a potency band. Blank or dashed fields: not listed here. Lines come from different laboratories, so protocols vary. ECn: concentration that inhibits the pathogen or its effect by n%.

Cc1c(C(=O)N2Cc3c(nn4c3C(=O)N([C@H](C)c3ccc(OC(F)F)cc3)CC4)C[C@H]2C)ccc(Cl)c1C#N ; read by: PCR ; value: 0.07 µM
CNC(=O)c1ccc(-n2c(=O)c3c(n4ncc(Cc5ccc(C#N)cc5)c24)CN(C(=O)c2ccc(Cl)c(Cl)c2)CC3)cc1 ; read by: PCR ; conditions: 3 d ; value: <0.1 µM
C[C@@H](NC(=O)c1c2n(c(=O)n1-c1ccc(OCC(F)(F)F)cc1)CCN(C(=O)c1ccc(Br)c(Cl)c1)C2)c1ccc(OC2COC2)cc1F ; read by: PCR ; value: 0.5–5 µM
CNC(=O)c1cnc(-n2c(=O)c3c(n4ncc(Cc5ccccc5)c24)CN(C(=O)c2ccc(Br)c(C(F)(F)F)c2)[C@@H](C)C3)nc1 ; read by: luminescence ; value: ≤0.05 µM
CNC(=O)c1ccc(-n2c(=O)c3c(n4ncc(Cc5ccc(OC(F)(F)F)cc5)c24)CN(C(=O)c2ccc(Cl)c(Cl)c2)CC3)cc1 ; read by: PCR ; conditions: 3 d ; value: 0.1–0.5 µM
Cc1cc(C)n(-c2nc3c(c(=O)n2-c2ccc(O)cc2)C[C@@H](C)N(C(=O)c2ccc(Br)c(C(F)(F)F)c2)C3)n1 ; strain: Genotype D ; read by: PCR ; value: ≤0.05 µM
Cc1cnn(-c2ccc(-n3c(=O)c4c(n5ncc(Cc6ccccc6)c35)CN(C(=O)c3ccc(Br)c(C(F)(F)F)c3)[C@@H](C)C4)cc2)n1 ; read by: luminescence ; value: 0.05–0.5 µM
CNC(=O)c1ccc(-n2c(=O)c3c(n4ncc(Nc5ccc(F)cc5)c24)CN(C(=O)c2ccc(Br)c(Cl)c2)CC3)cc1 ; read by: PCR ; conditions: 3 d ; value: <0.1 µM
CC(C)Cc1cnn2c3c(c(=O)n(-c4ccc(-c5cnnn5C)cc4)c12)C[C@@H](C)N(C(=O)c1ccc(Br)c(C(F)(F)F)c1)C3 ; read by: luminescence ; value: ≤0.05 µM
Cc1cc(C)n(-c2nc3c(c(=O)n2-c2ccc(OC[C@H](C)O)cc2)C[C@@H](C)N(C(=O)c2ccc(Br)c(C(F)(F)F)c2)C3)n1 ; strain: Genotype D ; read by: PCR ; value: ≤0.05 µM
CC(C)(NC(=O)c1c2n(c(=O)n1-c1ccccc1)CCN(C(=O)c1ccc(Br)c(Cl)c1)C2)c1ccccc1 ; read by: PCR ; value: >5 µM
C[C@@H]1Cc2nn3c(c2CN1C(=O)c1ccc(Cl)c(C#N)c1)C(=O)N(Cc1ccc2ncoc2c1)CC3 ; read by: PCR ; value: 0.056 µM
CNC(=O)c1ccc(-n2c(-n3nc(C)cc3C)nc3c(c2=O)C[C@@H](C)N(C(=O)c2ccc(Br)c(C(F)(F)F)c2)C3)cc1N ; strain: Genotype D ; read by: PCR ; value: ≤0.05 µM
C[C@@H]1Cc2nn3c(c2CN1C(=O)c1ccc(Cl)c(C#N)c1)C(=O)N([C@H](C)c1ccnc(C(F)(F)F)c1)CC3 ; read by: PCR ; value: 0.7 µM
Cc1cc(C)n(-c2nc3c(c(=O)n2-c2ccc(NC4CC(O)C4)nc2)C[C@@H](C)N(C(=O)c2ccc(Br)c(C(F)(F)F)c2)C3)n1 ; strain: Genotype D ; read by: PCR ; value: ≤0.05 µM
COc1ccc(-n2c(C(=O)NCc3ccccc3)c3n(c2=O)C[C@@H](C2CC2)N(C(=O)c2ccc(Br)c(Cl)c2)C3)cc1 ; read by: PCR ; value: 0.1–0.5 µM
Cc1cc(C)n(-c2nc3c(c(=O)n2-c2cc(Cl)c4c(c2)ncn4C)C[C@@H](C)N(C(=O)c2ccc(Br)c(C(F)(F)F)c2)C3)n1 ; strain: Genotype D ; read by: PCR ; value: ≤0.05 µM
C[C@@H]1Cc2nn3c(c2CN1C(=O)c1ccc(Cl)c(C#N)c1)C(=O)N(Cc1ccc2nccn2c1)CC3 ; read by: PCR ; value: 0.35 µM
CC(C)Cc1cnn2c3c(c(=O)n(-c4ccc(-c5nncn5C)cc4)c12)C[C@@H](C)N(C(=O)c1ccc(Cl)c(C(F)(F)F)c1)C3 ; read by: luminescence ; value: ≤0.05 µM
Cc1cc(C)n(-c2nc3c(c(=O)n2-c2ccc(N4CCN(C(C)C)CC4)nc2)C[C@@H](C)N(C(=O)c2ccc(Br)c(C(F)(F)F)c2)C3)n1 ; strain: Genotype D ; read by: PCR ; value: ≤0.05 µM
C[C@@H]1Cc2c(n3ncc(Cc4ccccc4)c3n(-c3ccc(-c4nc(=O)on4C)cc3)c2=O)CN1C(=O)c1ccc(Br)c(C(F)(F)F)c1 ; read by: luminescence ; value: ≤0.05 µM
C[C@@H]1Cc2nn3c(c2CN1C(=O)c1ccc(Cl)c(C#N)c1)C(=O)N([C@H](C)c1ccc2c(c1)OC(F)(F)O2)CC3 ; read by: PCR ; value: 0.032 µM
CC(C)Oc1ccc(-n2c(C(=O)NCc3ccc4occc4c3)c3n(c2=O)CCN(C(=O)c2ccc(Br)c(Cl)c2)C3)cc1 ; read by: PCR ; value: >5 µM
Cc1cc(C)n(-c2nc3c(c(=O)n2-c2ccc4c(ncn4C)n2)C[C@@H](C)N(C(=O)c2ccc(Br)c(C(F)(F)F)c2)C3)n1 ; strain: Genotype D ; read by: PCR ; value: ≤0.05 µM
O=C(c1ccc(Br)c(Cl)c1)N1CCc2c(n3nc(Cc4ccccc4)cc3n(-c3ccccc3)c2=O)C1 ; read by: PCR ; conditions: 3 d ; value: >5 µM
CNc1cnc(-n2c(-n3nc(C)cc3C)nc3c(c2=O)C[C@@H](C)N(C(=O)c2ccc(Br)c(C(F)(F)F)c2)C3)nc1 ; strain: Genotype D ; read by: PCR ; value: ≤0.05 µM
CCNC(=O)c1ccc(-n2c(=O)c3c(n4ncc(Cc5ccccc5)c24)CN(C(=O)c2ccc(Br)c(Cl)c2)CC3)cc1 ; read by: PCR ; conditions: 3 d ; value: 0.5–5 µM
COc1ccc([C@@H](C)NC(=O)c2c3n(c(=O)n2-c2ccc(OC4CC4)cc2)CCN(C(=O)c2ccc(Br)c(Cl)c2)C3)c(F)c1 ; read by: PCR ; value: <0.1 µM
CC(C)c1cnn2c3c(c(=O)n(-c4ccccc4)c12)CCN(C(=O)c1ccc(Br)c(Cl)c1)C3 ; read by: PCR ; conditions: 3 d ; value: 0.5–5 µM
C[C@@H]1Cc2nn3c(c2CN1C(=O)c1ccc(Cl)c(C#N)c1)C(=O)N([C@@H](C)c1cccc(OC(F)(F)F)c1)CC3 ; read by: PCR ; value: 0.175 µM
CNC(=O)c1ccc(-n2c(=O)c3c(n4ncc(NCc5ccccc5F)c24)CN(C(=O)c2ccc(Br)c(C#N)c2)CC3)cc1 ; read by: PCR ; conditions: 3 d ; value: 0.1–0.5 µM
Cc1n[nH]nc1-c1ccc(-n2c(=O)c3c(n4ncc(Cc5ccccc5)c24)CN(C(=O)c2ccc(Br)c(C(F)(F)F)c2)[C@@H](C)C3)cc1 ; read by: luminescence ; value: 0.05–0.5 µM

Repeating the final 2 entries:

| compound | strain | read by | conditions | value |
|---|---|---|---|---|
| CNC(=O)c1ccc(-n2c(=O)c3c(n4ncc(NCc5ccccc5F)c24)CN(C(=O)c2ccc(Br)c(C#N)c2)CC3)cc1 | - | PCR | 3 d | 0.1–0.5 µM |
| Cc1n[nH]nc1-c1ccc(-n2c(=O)c3c(n4ncc(Cc5ccccc5)c24)CN(C(=O)c2ccc(Br)c(C(F)(F)F)c2)[C@@H](C)C3)cc1 | - | luminescence | - | 0.05–0.5 µM |